# In patent US20260069689A1, “ANTI-SARS-COV-2-SPIKE GLYCOPROTEIN ANTIBODIES AND ANTIGEN-BINDING FRAGMENTS” (Regeneron, published 2026):
# B1: mAb14249 (antibody, V domains shown)
# VH: QVQLVQSGAEVKKPGASVKVSCKASGYTFTGYYMHWVRQAPGQGLEWMGRINPYSGGTNYAQKFQGRVTMTRDTSISTAYMELSRLRSDDTAVYYCASGFEPHDYGDPNLPPWGQGTLVTVSS
# VL: not shown
# B2: mAb14290 (antibody, V domains shown)
# VH: QVQLVQSGAEVKKPGSSVKVSCKASGGSFSNYAISWVRQAPGQGLEWMGGIIPFFGTTNYAQKFQGRLTITADESTSTFYMELSSLGSEDTAVYYCAAGYSSGWYPSWFDPWGQGTLVTVSS
# VL: EIVLTQSPGTLSLSPGERATLSCRASQSVNNNYLAWYQQKPGQTPRLLIYGASSRATGIPDRFSGSGSGTDFTLTITRLEPEDFAVYHCQQYGRSPTTFGQGTRLEIKR
# B3: mAb15151 (antibody, V domains shown)
# VH: QVQLVESGGGVVQPGRSLRLSCAASGFVFNSYGMHWVRQAPGKGLEWVAVLWYEGSKNYYADSVKGRFTISRDNSKNTLYLQMNSLRAEDTAVYYCARHGSGSFFGYYLDYWGQGTLVTVSS
# VL: DIQMTQSPSSLSASVGDRVTITCRASHNINDFLNWYQQKPGKAPRLLIYAASSLQSGVPSRFSGSGSGTDFTLTISSLQPEDFATYYCQESYTTPPTFGQGTKLEIKR
# B4: mAb15150 (antibody, V domains shown)
# VH: EVQLVETGGGLIQPGGSLRLSCAAPGFIVSSNYMSWVRQAPGKGLEWVSLLYPGGSTYYADSVKGRFTISRDNSKNTLYLQMNSLRADDTAVYYCARVLPIVEDHFDYWGQGTLVTVSS
# VL: DIQLTQSPSFLSASVGDRVTITCRASQGMSSYLAWYQKKPGKAPKLLIYGATILQSGVPSRFSGSGSGTEFTLTISSLQPEDFATYYCQQLNSDPLYMYTFGQGTKLEIKR
# B5: mAb14234 (antibody, V domains shown)
# VH: QVQLVESGGGVVQPGRSLRLSCAASGFTFSSYGIHWVRQAPGKGLEWVAIIWYDGSEKYYADSVKGRFTISRDNSKNTLFLQMNSLEAEDTAVYYCARGPDLLTGYYNYFYYGMDVWGQGTTVTVSS
# VL: QSVLTQPPSVSGAPGQRVTISCTGSSSNIGIGYDVHWYQQLPGTVPKLLIYGNTNRPSGVPDRFSGSKSGTSASLAITGLQAEDEADYYCQSYDSSLSSYVFGTGTKVTVLG
# B6: mAb15156 (antibody, V domains shown)
# VH: QLQLQESGPGLVKSSETLSLTCTVSASITGSTYYWGWIRQPPGKGLEWIGSIYYSGTTYYKASLKSRVTISVDTSKNQFSLKLTSVTVADTAVYYCVSHLLGNYHKYGMDVWGQGTTVTVSS
# VL: QSVLTQPPSASGTPGQRVTISCSGSRSNIGINTVNWYQQFPGTALNLLIFSDNQRPSGVPDRFSGSKSGTSASLAISGLQSEDEADYYCAAWDDSLNGPDWVFGGGTKLTVLG
# B7: mAb14255 (antibody, V domains shown)
# VH: QVQLQESGPGLVKPSETLSLTCTVSGGSISGYYWSWIRQPPGKGLDWIGYIYYRGNTNYNPSLKSRVTISVDTSNNQFSLKLSSVTAADTAVYYCARYGEGYGDASGYHFDYWGQGTLVTVSS
# VL: QSALTQPASVSGSPGQSITISCTGTSSDVGSYNLVSWYQQHPGKAPKLMIYEDSKRPSGVANPFSGSKSGNTASLTISGLQAEDEADYYCSSYAGSSTWVFGGGTKLTVLG
# B8: mAb15164 (antibody, V domains shown)
# VH: EVQLVESGGGLVQPGGSLRLSCAASGFAVSSNYMTWVRQAPGKGLEWVATIYSGDSTYYADSVKGRFTISRHNSKNTLSLQMNSLRADDTAIYYCARLSGVLSGTYNGAFDIWGQGTMVTVSS
# VL: QSALTQPASVSGSPGQSITISCTGTSSDFGNYNIVSWYQQHPGQAPKVMIYEGNKRPSGVSNRFSGSKSGHTASLTISGLQAEDEADYYCSSYAGSSTWVFGGGTKLTVLG
# B9: mAb15166 (antibody, V domains shown)
# VH: EVQLVESGGGLVQPGGSLRLSCAASGFTVTSNYMSWVRQAPGKGLEWVSAIYSGESTYYADSVKGRFTISRDSSKNTLYLQMNSLRVEDTAVYYCASIHDYSNYVGGFDPWGQGTLVTVSS
# VL: QSALTQPASVSGSPGQSITISCTGPSSDFGSYNLVSWYQQHPGKAPKLMIYEGTKRPSGVSNRFSGSKSGNTASLTISGLQAEDEADYYCSSYAGSSTWVFGGGTKLTVLG
# B10: mAb15164 (antibody, V domains shown)
# VH: EVQLVESGGGLVQPGGSLRLSCAASGFAVSSNYMTWVRQAPGKGLEWVATIYSGDSTYYADSVKGRFTISRHNSKNTLSLQMNSLRADDTAIYYCARLSGVLSGTYNGAFDIWGQGTMVTVSS
# VL: QSALTQPASVSGSPGQSITISCTGTSSDFGNYNIVSWYQQHPGQAPKVMIYEGNKRPSGVSNRFSGSKSGHTASLTISGLQAEDEADYYCSSYAGSSTWVFGGGTKLTVLG
# B11: mAb14287 (antibody, V domains shown)
# VH: QVQLVQSGAEVKKPGSSVKVSCKASGGTFSNNAISWVRQAPGQGLEWMGKIIPILGIGGDAQKFQGRFTITADKSTSTAYMELSSLRSEDTAVYYCANSGDSRPHAFDIWGQGTMVTVSS
# VL: QSALTQPASVSGSPGQSITISCTGTSSDVGSYNLVSWYQQHPGKAPKLMIYEVSKRPSGVSNRFSGSKSGNTASLTISGLQAEDEADYYCSSYAGSRREVFGGGTKLTVLG
# B12: mAb15166 (antibody, V domains shown)
# VH: EVQLVESGGGLVQPGGSLRLSCAASGFTVTSNYMSWVRQAPGKGLEWVSAIYSGESTYYADSVKGRFTISRDSSKNTLYLQMNSLRVEDTAVYYCASIHDYSNYVGGFDPWGQGTLVTVSS
# VL: QSALTQPASVSGSPGQSITISCTGPSSDFGSYNLVSWYQQHPGKAPKLMIYEGTKRPSGVSNRFSGSKSGNTASLTISGLQAEDEADYYCSSYAGSSTWVFGGGTKLTVLG
# B13: mAb15165 (antibody, V domains shown)
# VH: EVQLVESGGGLVQPGGSLRLSCAASGFTVSSNYMSWVRQAPGKGLEWVSAIYSGDSTYYADSVKGRFTISKDNSKNTLYLQMNSLRGEDTAVYYCARLGGALQAYDGAFDYWGQGTLATVSS
# VL: QSALTQPASVSGSPGQSITISCTGTSSDFGSYNLVSWYQQHPGKAPKLMIYEGNKRPSGVSIRFSGSKSGNTASLTISGLQAEDEADYYCSSYAGSSTWVFGGGTKLTVLG
# B14: mAb15165 (antibody, V domains shown)
# VH: EVQLVESGGGLVQPGGSLRLSCAASGFTVSSNYMSWVRQAPGKGLEWVSAIYSGDSTYYADSVKGRFTISKDNSKNTLYLQMNSLRGEDTAVYYCARLGGALQAYDGAFDYWGQGTLATVSS
# VL: QSALTQPASVSGSPGQSITISCTGTSSDFGSYNLVSWYQQHPGKAPKLMIYEGNKRPSGVSIRFSGSKSGNTASLTISGLQAEDEADYYCSSYAGSSTWVFGGGTKLTVLG
# B15: mAb15163 (antibody, V domains shown)
# VH: EVQLVETGGGLIQPGESLRLSCAASGFIVSTNYMNWVRQAPGKGLEWVSVIYRGGSTYYADSVKGRFTISRDNSKNTLFLQMNSLRAEDTAVYYCARGHEDFDYDTPASGAFDIWGQGTMVTVSS
# VL: QSALTQPPSASGSPGQSVTISCTGTSSDVGGHNYVSWYQQHPGKAPKVMIYEVSKRPSGVPDRFSGSKSGNTASLTVSGLQAEDEADYYCSSYAGSNKFVFGTGTKVTVLG
# B16: mAb14288 (antibody, V domains shown)
# VH: EVQLVESGGGLVQPGGSLRLSCAASGFTLSSYDMHWVRQVIGKGLEWVSTIGTSGDTYYPGSVKGRFTISRENAKNSLYLQMNSLRAGDTAVYYCARGGVPTTIWSGPYYYYMDVWGKGTTVTVSS
# VL: QSVLTQPPSVSAAPGQKVTISCSGSSSNIGNNYVSWYQQLPGTAPKLLIYENNKRPSGIPDRFSGSKSGTSATLGITGLQTGDEADYYCGTWDSSLSAGQGVFGGGTKLTVLG
# B17: mAb14256 (antibody, V domains shown)
# VH: QVQLQESGPGLVKPSETLSLTCTVSGGSISSHYWSWIRQPPGKGLEWIGYIYYSGSSNYNPSLKSRVTISVDTSKNQFSLKLNSVTAADTAVYYCARHYDILTGFDWFDPWGQGTLVTVSS
# VL: QSVLTQPPSVSGAPGQRVTISCTGSSSNIGTHYDVHWYQQLPGTAPKLLIYGNSNRPSGVPDRFSGSKSGTSASLAITGLQAEDEADYYCQSFDNSLTAPYVFGTGTKVTVLG
# B18: mAb14291 (antibody, V domains shown)
# VH: EVQLVQSGAEVKKPGSTMKISCKISGYIFSDYYMHWVQQAPGKGLEWMGLVDPEDGETRYAEKFQGRVTITADTSTDTAYMELSSLRFEDTAVYYCATVGGSSGPWGETLFDHWGQGSLVTVSS
# VL: DIVMTQSPLSLPVTPGEPASISCRSSQSLLHSNGYNYINWYLQKPGQSPQLLMYLGSNRASGVPDRFSGSGSGTDSTLKISRVEAEDAGVYYCMQTRQTPYTFGQGTKLEIKR
# B19: mAb15170 (antibody, V domains shown)
# VH: EVQLVESGGGLVQPGGSLRLSCAATGITVSSNYMSWVRQAPGKGLEWVSLIYSGGSTFYADSVKGRFTISRHNSKNTLYLQMSSLRAEDTAVYYCARDLVDFGMDVWGQGTTVTVSS
# VL: DIQLTQSPSSLSASVGDRVTITCRASQGISNYLAWYQQKPGKAPKLLIYAASTLQSGVPSRFSGSGSGTDFTLTISSLQPEDFGTYYCQQLNSDSPTFGQGTKVEIKR
# Tests used:
# [1] = molecular target: full-length SARS-CoV-2 spike protein (Wuhan-Hu-1) on Jurkat/hCD20 cells (SARS-CoV-2, UniProt P0DTC2 14-1273); assay: cell-based or functional assay
# [2] = molecular target: T1, SARS-COV-2 RBD extracellular domain expressed with a C-terminal mouse IgG2a Fc (SARS-CoV-2); assay: Biacore SPR, mAb captured on anti-hFc, 25 C
# [3] = molecular target: T1, SARS-COV-2 RBD extracellular domain …; assay: Biacore SPR, mAb captured on anti-hFc, 37 C
# [4] = molecular target: SARS-COV-2 RBD-MMH (SARS-COV-2 RBD extracellular domain with C-terminal myc-myc-hexahistidine tag) (SARS-CoV-2); assay: SPR 37C, mAb captured, 90 nM RBD-MMH, dissociation pH 6.0
binder,measurement,setting,value
B1,"EC50 [M] of ADCP, macrophages, Jurkat/hCD20/SARS-CoV-2 spike cells",[1],1.69e-10 M
same,"Max % ADCP, macrophages, Jurkat/hCD20/SARS-CoV-2 spike cells",[1],32.6%
B2,"Max % ADCP, macrophages, Jurkat/hCD20/SARS-CoV-2 spike cells",[1],16.7%
B3,RBD mFc dimer bound at 50 nM,[2],492 RU
same,RBD mFc dimer bound at 50 nM,[3],654 RU
B4,RBD.mmh Bound at pH 7.4 (RU),[4],89.7 RU
B5,"EC50 [M] of ADCP, macrophages, Jurkat/hCD20/SARS-CoV-2 spike cells",[1],7.27e-11 M
same,"Max % ADCP, macrophages, Jurkat/hCD20/SARS-CoV-2 spike cells",[1],32.8%
B6,RBD.mmh Bound at pH 7.4 (RU),[4],96.4 RU
B7,"EC50 [M] of ADCP, macrophages, Jurkat/hCD20/SARS-CoV-2 spike cells",[1],1.73e-11 M
same,"Max % ADCP, macrophages, Jurkat/hCD20/SARS-CoV-2 spike cells",[1],21.2%
B8,RBD.mmh Bound at pH 7.4 (RU),[4],154 RU
B9,RBD mFc dimer bound at 50 nM,[2],334 RU
same,RBD mFc dimer bound at 50 nM,[3],351 RU
B10,RBD mFc dimer bound at 50 nM,[2],309 RU
same,RBD mFc dimer bound at 50 nM,[3],466 RU
B11,"Max % ADCP, macrophages, Jurkat/hCD20/SARS-CoV-2 spike cells",[1],33.2%
B12,RBD.mmh Bound at pH 7.4 (RU),[4],66 RU
B13,RBD mFc dimer bound at 50 nM,[2],223 RU
same,RBD mFc dimer bound at 50 nM,[3],191 RU
B14,RBD.mmh Bound at pH 7.4 (RU),[4],115 RU
B15,RBD.mmh Bound at pH 7.4 (RU),[4],82.4 RU
B16,"EC50 [M] of ADCP, macrophages, Jurkat/hCD20/SARS-CoV-2 spike cells",[1],6.14e-10 M
same,"Max % ADCP, macrophages, Jurkat/hCD20/SARS-CoV-2 spike cells",[1],25.9%
B17,"Max % ADCP, macrophages, Jurkat/hCD20/SARS-CoV-2 spike cells",[1],19.5%
B18,"EC50 [M] of ADCP, macrophages, Jurkat/hCD20/SARS-CoV-2 spike cells",[1],4.12e-10 M
same,"Max % ADCP, macrophages, Jurkat/hCD20/SARS-CoV-2 spike cells",[1],32.9%
B19,RBD mFc dimer bound at 50 nM,[2],238 RU
same,RBD mFc dimer bound at 50 nM,[3],374 RU
